{"source": "PubChem BioAssay AID1258", "about": "(University of Pittsburgh Molecular Library Screening Center, 2008)", "note": "The list shows a part of the results, in another mix than the full data. Active and inactive are the calls of the source.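 Rule for the calls: active = inhibition above about 50% in both repeat tests (limit read from the data); inconclusive = one repeat under the set limit, the other over it; inactive = both repeats under the set limit.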"}
{"assay": "Leishmania major promastigote growth inhibition, confirmation, 1 µM repeat of primary hits (AID 1258)", "conditions": "L. major promastigote growth, resazurin fluorescence, 48 h; at 1 µM; hits give high values", "method_in_brief": "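Assay system: Leishmania major promastigote parasites. Amount: 5,000 promastigotes per well. Incubation: 44 h compound exposure plus 4 h dye step, both 28 °C. Evaluation: parasite viability inhibition versus plate controls. Benchmarks: DMSO high/low controls plus tamoxifen reference.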"}
{"molecule": "O=[N+]([O-])c1cc([N+](=O)[O-])c(NCC2CCS(=O)(=O)C2)c([N+](=O)[O-])c1", "note": "(stereo unspecified)", "inhibition": "inactive: -1.08%"}
